In PMC7728077, “Double-Headed Cationic Lipopeptides: An Emerging Class of Antimicrobials” (International Journal of Molecular Sciences, 2020):

System: POPG large unilamellar vesicles (LUVs)
Experiment: Isothermal titration calorimetry, binding to POPG
Details: ITC, 298.15 K
Protocol: Isothermal titration calorimetry (ITC) experiments were carried out at 298.15 K using an AutoITC isothermal titration calorimeter (MicroCal Inc., GE Healthcare, Northampton, MA, USA) equipped with a 1.4491 mL sample cell and a reference cell. A typical ITC experiment involved a series of consecutive injections of 10.02 µL aliquots of the titrant (2 µL for the first injection only) into the reaction cell, at an interval of 4 min. The stirrer speed was constantly kept at 300 rpm to provide thorough mixing inside the reaction cell. Three types of ITC experiments were performed. These included lipopeptides binding to POPG, POPC, and LPS. The experiments were carried out by titration of 1.3 mM POPG or POPC LUVs into 0.05 or 0.1 mM lipopeptide solutions and the titration of 0.5 or 0.75 mM lipopeptide solution into 200 or 400 µg/mL LPS solution. The molecular mass of LPS was assumed to be 20,000 Da. To assess the heat of dilution, control experiments were performed by titration of an appropriate titrant into PBS. Final results were evaluated with an ITC module for ORIGIN 7 software, provided by MicroCal, Inc. (Northampton, MA, USA). The binding constant, stoichiometry, and enthalpy of interactions were directly determined from ITC experiment by fitting one of the built-in curve fitting models to the experimental data points. Changes in entropy (∆S°) and the Gibbs free energy (∆G°) were calculated from the following equation: ∆G^°=−RTln(55.5Ka)=∆H^°−T∆S^° where 55.5 is the molar concentration of water, R is the gas constant (1.986 cal·mol^−1·K^−1), and T is the absolute temperature.

[1] = calculated from ΔG° = −RTln(55.5Ka) = ΔH° − TΔS°, single transition or first line
[2] = calculated, second line (second binding event)
[3] = single transition or first line of two binding events
[4] = calculated from −RTln(55.5Ka), single transition or first line

SMILES	TΔS°, POPG [1] [kcal/mol]	TΔS°, POPG [2] [kcal/mol]	ΔG°, POPG [2] [kcal/mol]	ΔH°, POPG (second line (second binding event)) [kcal/mol]	n (stoichiometry), POPG (second line printed for the peptide (second binding event))	ΔH°, POPG [3] [kcal/mol]	ΔG°, POPG [4] [kcal/mol]
CCCCCCCCCCCCCCCC(=O)NCC[C@H](NC(=O)[C@@H](N)CCCCN)C(=O)N[C@@H](CCCCN)C(N)=O [K(DabC16)K-NH2] (H-Lys-[Dab](Palmitoyl)-Lys-NH2)	9.41 ± 0.17	10.68 ± 0.36	-11.36 ± 0.36	-0.68 ± 0.04	1.57 ± 0.07	-1.22 ± 0.06	–
CCCCCCCCCCCCCCCC(=O)NCCC[C@H](NC(=O)[C@@H](N)CCCCN)C(=O)N[C@@H](CCCCN)C(N)=O [K(OC16)K-NH2]	8.92 ± 0.16	–	–	–	–	-1.35 ± 0.03	-10.27 ± 0.16
CCCCCCCCCCCCCCCC(=O)NCCCC[C@H](NC(=O)[C@@H](N)CCCCN)C(=O)N[C@@H](CCCCN)C(N)=O [K(KC16)K-NH2]	8.85 ± 0.20	–	–	–	–	-1.24 ± 0.04	-10.10 ± 0.15

Square brackets hold non-standard residues; d marks the D form. Peptide text beside a SMILES is read from it. * marks the point of attachment. Palmitoyl = CCCCCCCCCCCCCCCC(=O)*; Dab = NCC[C@H](N)C(=O)O
